The record followed here is patent US20140315822A1.

Assay [1] addresses T1, PDZ domain of the human PTPN4 protein (human) (UniProt P29074).
T1 sequence: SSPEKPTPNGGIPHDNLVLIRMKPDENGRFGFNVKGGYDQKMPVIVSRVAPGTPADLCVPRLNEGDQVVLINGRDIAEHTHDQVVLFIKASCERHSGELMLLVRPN
As to the kind of experiment: method not restated in the table; ITC per paragraph 50.

In assay [2] the target is PDZ domain of the human MAST2 protein (human) (UniProt Q6P0Q8). As to the kind of experiment: ITC, 298 K, MAST2-PDZ titrated with peptide. On the technique in general: ITC needs no label: the signal is the heat of the interaction.
Assay [3] shares this target. As to the kind of experiment: ITC, ratio of KD against Neurovita1.

“441 (Neurovita 2) (peptide; modification not given)” came in with a Kd in assay [1] of 554 µM. Besides, in assay [2], the TΔS (entropy) is -808, the n (stoechiometry) came to 1.07 and the ΔH (enthalpy) was -10200. The gain in affinity as compared to Neurovita1 in assay [3] was 10 fold.

As usually defined, the Kd is the concentration at which binding is half-saturated. Lower therefore signals higher affinity.
